{"source": "patent US20210251975A1", "about": "“USE OF CICLOPIROX FOR INHIBITING HBV CORE ASSEMBLY” (GWANGJU INSTITUTE OF SCIENCE AND TECHNOLOGY, priority 2018, published 2021)", "tested_on": "HBV-expressing HepG2.2.15 cell lines and HBV-expressing liver cell lines", "test": "MTS cell viability"}
{"smiles": "Cc1cc(C2CCCCC2)n(O)c(=O)c1", "note": "[ciclopirox]", "values": [{"measurement": "cell viability at the highest concentration", "setting": "10 μM", "result": "maintained"}, {"measurement": "decrease in cell viability", "setting": "HBV-expressing cell lines or HBV-overexpressing cell lines", "result": "not observed"}]}
